Reference: article PMC9404985, “Development of Dicationic Bisguanidine-Arylfuran Derivatives as Potent Agents against Gram-Negative Bacteria” (Antibiotics, 2022)

What was measured:
[1] = tested on: E. coli MG1655 (CGSC #6300); test: Antibacterial resazurin assay, laboratory strain; settings: EC90 basis
[2] = tested on: Acinetobacter baumannii CCUG # 57035; test: MIC of established antibiotics, micro-broth dilution; settings: CCUG #57035 vs #57250 (Table S3)
[3] = tested on: A. baumannii (CCUG #57250); test: Antibacterial activity against isolates (Omnilog, Biolog redox dye); assay type: cell-based, Acinetobacter baumannii; settings: ratio EC90 CTX / EC90 compound
Protocol: (§1) The antibacterial activities of eight compounds (1, 3, 4, 6, 8, 10, 16, and 17) were tested against 10 different isolates of Gram-negative bacteria from human and other sources, two E. coli (CCUG #67180 and CCUG #17620/ATCC #25922, control strain), two K. pneumoniae (CCUG #58547 and CCUG #225T), two P. aeruginosa (CCUG #17619 and CCUG #59347), two A. baumannii (CCUG #57035 and CCUG #57250), E. cloacae (CCUG #6323T), and E. hormaechei (CCUG #58962) in a 96-well plate format. The compounds to test were 3-fold diluted in six steps in cation-adjusted Mueller-Hinton (ca-MH) broth to final concentrations spanning from 30 to 0.12 µM, i.e., a 1667–416,667 times dilution from the 50 mM stocks. Bacterial mass from the ten isolates grown overnight on horse blood or Mueller–Hinton agar plates was suspended in ca-MH and adjusted to a final inoculum cell density of ~5 × 10^5 CFU/mL. For all assays, Biolog redox dye A diluted 100× from the stock solution was used for measurements of all ten isolates (up to a total volume of 120 µL per well). […] All measurements were performed using the Omnilog microplate reader (Biolog, Hayward, CA, USA) where the 96-well plates were read at 15 min intervals for a total of 24 h at 37 °C.

[4] = tested on: K. pneumoniae (CCUG #225T); test: as above; assay type: cell-based, Klebsiella pneumoniae; settings: analogous ratio (times more potent than CTX)
Protocol: as §1

## N=C(N)Nc1ccc(-c2ccc(C(=O)N3CCc4cc(NC(=N)N)ccc43)o2)cc1 [Compound 17, (5-(4-guanidinophenyl)furan-2-yl)(5-guanidinoindolin-1-yl)methanone]
[1]
  fold more potent than ampicillin, E. coli: 20 fold

## CO/N=C(\C(=O)N[C@@H]1C(=O)N2C(C(=O)O)=C(COC(C)=O)CS[C@H]12)c1csc(N)n1 [CTX, Cefotaxime, reference compound]
[2]
  difference in sensitivity/resistance between the two A. baumannii isolates: 18 ×

## C[C@@H](O)[C@H]1C(=O)N2C(C(=O)O)=C(S[C@@H]3CN[C@H](C(=O)N(C)C)C3)[C@H](C)[C@H]12 [Meropenem]
[2]
  difference in sensitivity/resistance between the two A. baumannii isolates: 8 ×

## N=C(N)Nc1ccc(-c2ccc(-c3ccc(NC(=N)N)cc3)o2)cc1 [Compound 3]
[3]
  times more potent than CTX, A. baumannii CCUG #57250: 20 times
[4]
  potency ratio relative to CTX, K. pneumoniae CCUG #225T: 0.1

## N=C(N)Nc1ccc2c(c1)CCN2C(=O)c1ccc(-c2ccccc2Cl)o1 [Compound 19, (5-(2-chlorophenyl)furan-2-yl)(5-guanidinoindolin-1-yl)methanone]
[1]
  fold more potent than ampicillin, E. coli: 35 fold

## N=C(N)Nc1ccc(-c2ccc(-c3ccc(NC(=N)N)cc3Cl)o2)c(Cl)c1 [Compound 1, 2,5-Bis(2-chloro-4-guanidinophenyl)furan]
[3]
  times more potent than CTX, A. baumannii CCUG #57250: 7 times
